Experimental data published in patent US20250115620A1, “BRIDGED TRICYCLIC CARBAMOYLPYRIDONE COMPOUNDS AND USES THEREOF” (Gilead Sciences, Inc., priority 2022, published 2025).

Test system: pLAI reporter virus
Assay type: cell-based, HIV
Conditions: EC50 (50% HS)/EC50 (CCM)

Structure (SMILES) | RLUC 50% HS Shift
C[C@H]1CC[C@@]2(COCO2)[C@H]2CN1C(=O)c1c(O)c(=O)c(C(=O)NCc3c(F)cc(F)cc3F)cn12 [Example 131, (3′S,4S,7′R)-12′-hydroxy-3′-methyl-1′,11′-dioxo-N-(2,4,6-trifluorobenzyl)-1′,4′,5′,11′-tetrahydro-3′H,7′H-spiro[[1,3]dioxolane-4,6′-[2,7]methanopyrido[1,2-a][1,4]diazonine]-10′-carboxamide] | 16×
C[C@@H]1OC[C@]2(CC[C@H](C)N3C[C@H]2n2cc(C(=O)NCc4c(F)cc(F)cc4F)c(=O)c(O)c2C3=O)O1 [Example 133, (2R,3′S,4R,7′R)-12′-hydroxy-2,3′-dimethyl-1′,11′-dioxo-N-(2,4,6-trifluorobenzyl)-1′,4′,5′,11′-tetrahydro-3′H,7′H-spiro[[1,3]dioxolane-4,6′-[2,7]methanopyrido[1,2-a][1,4]diazonine]-10′-carboxamide] | 205×
C[C@H]1CC[C@]2(CO[C@H](Cc3ccccc3)O2)[C@H]2CN1C(=O)c1c(O)c(=O)c(C(=O)NCc3c(F)cc(F)cc3F)cn12 [Example 134, (2S,3′S,4R,7′R)-2-benzyl-12′-hydroxy-3′-methyl-1′,11′-dioxo-N-(2,4,6-trifluorobenzyl)-1′,4′,5′,11′-tetrahydro-3′H,7′H-spiro[[1,3]dioxolane-4,6′-[2,7]methanopyrido[1,2-a][1,4]diazonine]-10′-carboxamide] | 3×
C[C@H]1CC[C@]2(COC(Cc3ccccc3)O2)[C@H]2CN1C(=O)c1c(O)c(=O)c(C(=O)NCc3c(F)cc(F)cc3F)cn12 (stereo partly drawn) [Example 135, (2R,3′S,4R,7′R)-2-benzyl-12′-hydroxy-3′-methyl-1′,11′-dioxo-N-(2,4,6-trifuorobenzyl)-1′,4′,5′,11′-tetrahydro-3′H, 7′H-spiro(f[,3]dioxolane-4,6′-[2,7]methanopyrido[1,2-a][1,4]diazonine]-10′-carboxamide] | 224×
C[C@H]1CC[C@@]2(COC(Cc3ccccc3)O2)[C@H]2CN1C(=O)c1c(O)c(=O)c(C(=O)NCc3c(F)cc(F)cc3F)cn12 (stereo partly drawn) [Example 136, (3′S,4S,7′R)-2-benzyl-12′-hydroxy-3′-methyl-1′,11′-dioxo-N-(2,4,6-trifluorobenzyl)-1′,4′,5′,11′-tetrahydro-3′H,7′H-spiro[[1,3]dioxolane-4,6′-[2,7]methanopyrido[1,2-a][1,4]diazonine]-10′-carboxamide] | 5×
C[C@H]1CC[C@]2(COC(C)(C)O2)[C@H]2CN1C(=O)c1c(O)c(=O)c(C(=O)NCc3c(F)cc(F)cc3F)cn12 [Example 137, (3′S,4R,7′R)-12′-hydroxy-2,2,3′-trimethyl-1′,11′-dioxo-N-(2,4,6-trifluorobenzyl)-1′,4′,5′,11′-tetrahydro-3′H,7′H-spiro[[1,3]dioxolane-4,6′-[2,7]methanopyrido[1,2-a][1,4]diazonine]-10′-carboxamide] | 44×
C[C@H]1CC[C@@]2(COC(C)(C)O2)[C@H]2CN1C(=O)c1c(O)c(=O)c(C(=O)NCc3c(F)cc(F)cc3F)cn12 [Example 138, (3′S,4S,7′R)-12′-hydroxy-2,2,3′-trimethyl-1′,11′-dioxo-N-(2,4,6-trifluorobenzyl)-1′,4′,5′,11′-tetrahydro-3′H,7′H-spiro[[1,3]dioxolane-4,6′-[2,7]methanopyrido[1,2-a][1,4]diazonine]-10′-carboxamide] | 26×
C[C@H]1CC[C@]2(COCCO2)[C@H]2CN1C(=O)c1c(O)c(=O)c(C(=O)NCc3c(F)cc(F)cc3F)cn12 [Example 139, (2R,3′S,7′R)-12′-hydroxy-3′-methyl-1′,11′-dioxo-N-(2,4,6-trifluorobenzyl)-1′,4′,5′,11′-tetrahydro-3′H,7′H-spiro[[1,4]dioxane-2,6′-[2,7]methanopyrido[1,2-a][1,4]diazonine]-10′-carboxamide] | 837×
C[C@H]1CC[C@@]2(COCCO2)[C@H]2CN1C(=O)c1c(O)c(=O)c(C(=O)NCc3c(F)cc(F)cc3F)cn12 [Example 140, (2S,3′S,7′R)-12′-hydroxy-3′-methyl-1′,11′-dioxo-N-(2,4,6-trifluorobenzyl)-1′,4′,5′,11′-tetrahydro-3′H,7′H-spiro[[1,4]dioxane-2,6′-[2,7]methanopyrido[1,2-a][1,4]diazonine]-10′-carboxamide] | 17×
C[C@H]1CC[C@]2(COC(F)(F)O2)[C@H]2CN1C(=O)c1c(O)c(=O)c(C(=O)NCc3c(F)cc(F)cc3F)cn12 [Example 141, (3′S,4R,7′R)-2,2-difluoro-12′-hydroxy-3′-methyl-1′,11′-dioxo-N-(2,4,6-trifluorobenzyl)-1′,4′,5′,11′-tetrahydro-3′H,7′H-spiro[[1,3]dioxolane-4,6′-[2,7]methanopyrido[1,2-a][1,4]diazonine]-10′-carboxamide] | 1317×
C[C@H]1CCC2(N=c3ccccc3=N2)[C@H]2CN1C(=O)c1c(O)c(=O)c(C(=O)NCc3c(F)cc(F)cc3F)cn12 [Example 142, (3′S,7′R)-12′-hydroxy-3′-methyl-1′,11′-dioxo-N-(2,4,6-trifluorobenzyl)-1′,4′,5′,11′-tetrahydro-3′H,7′H-spiro[benzo[d]imidazole-2,6′-[2,7]methanopyrido[1,2-a][1,4]diazonine]-10′-carboxamide] | 1×
C[C@H]1CC[C@]2(Cc3ccccc3O2)[C@H]2CN1C(=O)c1c(O)c(=O)c(C(=O)NCc3c(F)cc(F)cc3F)cn12 [Example 143, (2S,3′S,7′R)-12′-hydroxy-3′-methyl-1′,11′-dioxo-N-(2,4,6-trifluorobenzyl)-1′,4′,5′,11′-tetrahydro-3H,3′H,7′H-spiro[benzofuran-2,6′-[2,7]methanopyrido[1,2-a][1,4]diazonine]-10′-carboxamide] | 784×
C[C@H]1CC[C@@]2(Cc3ccccc3O2)[C@H]2CN1C(=O)c1c(O)c(=O)c(C(=O)NCc3c(F)cc(F)cc3F)cn12 [Example 144, (2R,3′S,7′R)-12′-hydroxy-3′-methyl-1′,11′-dioxo-N-(2,4,6-trifluorobenzyl)-1′,4′,5′,11′-tetrahydro-3H,3′H,7′H-spiro[benzofuran-2,6′-[2,7]methanopyrido[1,2-a][1,4]diazonine]-10′-carboxamide] | 23×
COC1=NS[C@]2(CC[C@H](C)N3C[C@H]2n2cc(C(=O)NCc4ccc(F)cc4F)c(=O)c(O)c2C3=O)C1 [Example 145, (3′S,5R,7′R)—N-(2,4-difluorobenzyl)-12′-hydroxy-3-methoxy-3′-methyl-1′,11′-dioxo-1′,4′,5′,11′-tetrahydro-3′H,4H,7′H-spiro[isothiazole-5,6′-[2,7]methanopyrido[1,2-a][1,4]diazonine]-10′-carboxamide] | 7×
COc1ccc(CN2C(C)=NO[C@@]23CC[C@H](C)N2C[C@H]3n3cc(C(=O)NCc4ccc(F)cc4F)c(=O)c(O)c3C2=O)cc1 [Example 147, (3′S,5R,7′R)—N-(2,4-difluorobenzyl)-12′-hydroxy-4-(4-methoxybenzyl)-3,3′-dimethyl-1′,11′-dioxo-1′,4′,5′,11′-tetrahydro-3′H,4H,7′H-spiro[[1,2,4]oxadiazole-5,6′-[2,7]methanopyrido[1,2-a][1,4]diazonine]-10′-carboxamide] | 10×
